Results on one compound are retold here after patent US11649222B2, “Compounds” (UNIVERSITETET I OSLO, priority 2016, dated 2023).

This assay deals with K. pneumoniae K66-45. It counts as cell-based. The method, then:
After plating and grown overnight at 37° C., only single colonies, ignoring any touching the edges of the plate, were counted.
10^9 CFU K66-45 (Mueller-Hinton broth, no selection) was plated and grown overnight, 37° C. Only single colonies, ignoring any touching the edges of the plate, were counted.

Read-outs that look alike come from different tables or passages of the source.

In the case of `CN(C[C@H](O)[C@@H](O)[C@H](O)[C@H](O)CO)C(=O)c1ccc(CN(Cc2ccccn2)Cc2ccccn2)nc1` [Example 26, 6-((bis(pyridin-2-ylmethyl)amino)methyl)-N-methyl-N-((2S,3R,4R,5R)-2,3,4,5,6-pentahydroxyhexyl)nicotinamide], the “Resistance/mutant frequency (number of colonies)” value is recorded as 137 colonies (Example 26 15 mg/L, 1 mg/L MEM); 115 colonies (Example 26 15 mg/L, 2 mg/L MEM); 4 colonies (Example 26 15 mg/L, 4 mg/L MEM); 74 colonies (Example 26 25 mg/L, 1 mg/L MEM); 35 colonies (Example 26 25 mg/L, 2 mg/L MEM); 22 colonies (Example 26 50 mg/L, 1 mg/L MEM). The “Resistance/mutant frequency (number of colonies)” value (Example 26 50 mg/L, 2 mg/L MEM) was “n.c”.
